Assay results published in PMC3634732, “Chemical Chaperones Exceed the Chaperone Effects of RIC-3 in Promoting Assembly of Functional α7 AChRs” (PLoS ONE, 2013).

Sequences of proteins named here, by UniProt entry; tags and fusion partners are left off. A change or cut given only in a name is not applied to a line headed by its entry.
UniProt P36544: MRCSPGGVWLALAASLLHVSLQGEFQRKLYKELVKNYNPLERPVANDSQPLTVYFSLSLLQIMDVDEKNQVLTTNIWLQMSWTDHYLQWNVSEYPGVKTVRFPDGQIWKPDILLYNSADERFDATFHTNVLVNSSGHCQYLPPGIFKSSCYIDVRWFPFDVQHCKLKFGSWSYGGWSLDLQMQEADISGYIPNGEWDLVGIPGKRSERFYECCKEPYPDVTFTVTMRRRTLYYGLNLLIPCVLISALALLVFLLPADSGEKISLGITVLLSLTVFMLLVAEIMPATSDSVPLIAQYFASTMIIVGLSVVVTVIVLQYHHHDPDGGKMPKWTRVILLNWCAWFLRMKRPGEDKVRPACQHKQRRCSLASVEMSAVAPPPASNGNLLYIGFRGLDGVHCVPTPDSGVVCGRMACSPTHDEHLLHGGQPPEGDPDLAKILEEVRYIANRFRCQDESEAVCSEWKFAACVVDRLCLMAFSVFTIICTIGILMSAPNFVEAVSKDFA

Columns and labels:
[1] = molecular target: T1, α7 AChRs (Homo sapiens, UniProt P36544); test: 125I αBgt total binding to fixed cells permeabilized with Triton X-100; conditions: read-out: KD, high affinity binding
[2] = molecular target: T1, α7 AChRs; test: 125I αBgt binding to the surface of live α7/RIC-3 cells; conditions: read-out: KD, high affinity binding

α bungarotoxin
Kd [1]: 2.18 nM
Kd [2]: 0.841 nM
